This is an account of results in PMC2829070 (PLoS Pathogens, 2010).

Molecules are shown by their SMILES.

The target of the experiment is NA of HN30408 clone7 (A/Hanoi/30408/05, H5N1, oseltamivir-sensitive) (Influenza A virus, UniProt Q3C1C4). Briefly: NA activity inhibition assay (MUNANA).

For the compound `CC(=O)N[C@H]1[C@H]([C@H](O)[C@H](O)CO)OC(C(=O)O)=C[C@@H]1N=C(N)N` [Zanamivir], the IC50 (usually the concentration that gives 50% inhibition) turned out to be 0.72 nM.
